# Values from PubChem BioAssay AID1259414 (Drosophila RNAi Screening Center, 2018)
# Screen: 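Host factors increasing or decreasing Wolbachia levels in cultured fly cells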 (primary screen)
# System: Drosophila JW18 cells infected with Wolbachia
# Knock-down reagent: long dsRNA against Drosophila genes, 0.25 µg dsRNA per well of a 384-well plate
# Timing: 5 days
# Challenge: cells persistently infected with Wolbachia before knock-down; no added drug
# Read-out: 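Automated imaging of bacterial rRNA staining divided by host cell count, reported as plate-normalised robust z-score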
# Scale: Wolbachia per cell robust z: higher = more Wolbachia per host cell than the plate typical
# Rule for the call: 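Active if absolute robust z reaches 1.5 in two or more of three replicates, leaving out multi- or no-target dsRNAs, genes unexpressed in JW18 and A1 wells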
# The deposit covers about 24,000 reagents; below is a random part of those with a known target gene and a result. Of all reagents, about 1,210 (5%) got an active call. 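Inactive calls also include excluded dsRNAs with several or no targets, genes unexpressed in JW18, and well A1, regardless of score.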 A plus sign joins genes that one reagent is predicted to hit.
The opening 8 records, ahead of the listing:
target gene,DRSC id,"Wolbachia per cell robust z, rep 1","Wolbachia per cell robust z, rep 2","Wolbachia per cell robust z, rep 3",Outcome
CG34248,DRSC09426,-1.93,-0.845,-1.7,inactive
Dysb (Dysbindin),DRSC10730,0.73,0.569,1.66,inactive
CG15564,DRSC15102,0.865,0.762,-3.4,inactive
Syx17 (Syntaxin 17),DRSC08591,-2.03,-0.788,0.219,inactive
CG42675,DRSC12157,-2.5,-6.27,-0.829,inactive
CG42675,DRSC21868,-2.85,-1.45,-0.603,inactive
CG42675,DRSC24431,2.25,1.59,0.412,inactive
CG42675,DRSC26577,-0.959,-0.917,0.163,inactive

The list itself, from the first entry:
target gene,DRSC id,"Wolbachia per cell robust z, rep 1","Wolbachia per cell robust z, rep 2","Wolbachia per cell robust z, rep 3",Outcome
CG34248,DRSC09426,-1.93,-0.845,-1.7,inactive
Dysb (Dysbindin),DRSC10730,0.73,0.569,1.66,inactive
CG15564,DRSC15102,0.865,0.762,-3.4,inactive
Syx17 (Syntaxin 17),DRSC08591,-2.03,-0.788,0.219,inactive
CG42675,DRSC12157,-2.5,-6.27,-0.829,inactive
CG42675,DRSC21868,-2.85,-1.45,-0.603,inactive
CG42675,DRSC24431,2.25,1.59,0.412,inactive
CG42675,DRSC26577,-0.959,-0.917,0.163,inactive
NimC1 (Nimrod C1),DRSC01879,0.149,-1.01,-5.42,inactive
CG6610,DRSC10674,0.459,0.811,-0.0469,inactive
BBS4 (Bardet-Biedl syndrome 4),DRSC06352,0.636,-0.0744,-1.09,inactive
BBS4 (Bardet-Biedl syndrome 4),DRSC28073,-1.81,-3.11,0.28,inactive
Reg-5 (Rhythmically expressed gene 5),DRSC04647,-0.89,-7.58,-5.18,active
wat (waterproof),DRSC14854,1.15,-0.221,-0.161,inactive
RpS10b (Ribosomal protein S10b),DRSC19561,-2.67,-0.0458,-3.6,active
CG8958,DRSC20134,1.22,-1.67,0.734,inactive
CG8958,DRSC29479,-0.387,-0.785,0.128,inactive
Ugt36D1 (UDP-glycosyltransferase family 36 member D1),DRSC02600,0.137,0.242,0.481,inactive
CCDC53 (Coiled-coil domain containing 53),DRSC03056,-4.32,0.185,0.146,inactive
CG9300,DRSC11064,0.794,0.0933,0.529,inactive
Gal (beta galactosidase),DRSC03134,0.125,-0.204,-0.679,inactive
Gal (beta galactosidase),DRSC24562,0.457,-1.21,0.282,inactive
Fen1 (Flap endonuclease 1),DRSC07415,-0.315,0.212,0.326,inactive
Eig71Eh,DRSC11155,0.698,0.559,0.459,inactive
CG6628,DRSC10679,0.609,2.05,0.933,inactive
Cad87A (Cadherin 87A),DRSC16161,-1.49,-6.65,-0.128,inactive
Cad87A (Cadherin 87A),DRSC29158,1.12,0.861,-0.0731,inactive
CG3528,DRSC00611,-0.889,-2.51,-0.98,inactive
CG3528,DRSC26034,-0.00374,-0.155,-0.533,inactive
Klp61F (Kinesin-like protein at 61F),DRSC08671,-6.78,0.166,1.11,inactive
Klp61F (Kinesin-like protein at 61F),DRSC28179,3.25,3.67,4.92,active
Klp61F (Kinesin-like protein at 61F),DRSC40778,0.261,0.785,0.552,inactive
Apc2 (Adenomatous polyposis coli 2),DRSC14115,-1.11,-1.39,-0.188,inactive
CG43163,DRSC10748,0.159,-1.56,-0.704,inactive
CG43163,DRSC23670,1.08,-0.143,1.15,inactive
Sp212 (Serine-peptidase 212),DRSC22930,-0.668,-1.13,-0.521,inactive
Sp212 (Serine-peptidase 212),DRSC28291,-0.366,-0.292,0.926,inactive
sina (seven in absentia),DRSC41298,0.808,1.2,-2.28,inactive
Rpn8 (Regulatory particle non-ATPase 8),DRSC04624,1.07,2.56,1.24,inactive
Rpn8 (Regulatory particle non-ATPase 8),DRSC29897,3.35,2.1,2.81,active
Sbds (SBDS ribosome maturation factor),DRSC10992,0.424,0.968,-1.03,inactive
Pfrx (6-phosphofructo-2-kinase),DRSC18856,0.85,1.04,1.15,inactive
Pfrx (6-phosphofructo-2-kinase),DRSC19315,-8.2,-0.519,-0.861,inactive
Pfrx (6-phosphofructo-2-kinase),DRSC28602,-0.592,0.821,-0.499,inactive
CG5521,DRSC15828,0.396,-3.8,0.858,inactive
CG5521,DRSC30087,0.608,0.79,-0.0944,inactive
htt (huntingtin),DRSC16970,-0.417,-1.09,0.0646,inactive
Pex14 (Peroxin 14),DRSC11754,-3.11,-1.29,0.714,inactive
Pex14 (Peroxin 14),DRSC28339,-0.672,-1.27,-1.08,inactive
can (cannonball),DRSC10664,0.185,-1.2,0.991,inactive
Obp50a (Odorant-binding protein 50a),DRSC22152,0.278,0.793,0.893,inactive
Obp50a (Odorant-binding protein 50a),DRSC28404,0.773,0.207,0.337,inactive
Obp50a (Odorant-binding protein 50a),DRSC41277,0.463,-0.713,-1.38,inactive
Eogt (EGF-domain O-GlcNAc transferase),DRSC00727,0.53,-0.592,-12.9,inactive
Eogt (EGF-domain O-GlcNAc transferase),DRSC26180,0.506,-0.61,-0.647,inactive
Dh44 (Diuretic hormone 44),DRSC12747,0.104,0.74,1.4,inactive
Dh44 (Diuretic hormone 44),DRSC16409,-0.613,0.735,-6.22,inactive
Ada2a + Polr2D,DRSC16206,-5.38,-4.7,-0.0637,active
Ada2a + Polr2D,DRSC21598,-0.538,-1.7,0.128,inactive
Or88a (Odorant receptor 88a),DRSC16770,-1.04,-0.158,0.21,inactive
CG32679,DRSC17644,0.095,-0.278,-1.5,inactive
CG15233,DRSC04967,0.486,1.12,-0.161,inactive
CG2955,DRSC00552,-2.07,-0.786,-0.587,inactive
CG7208,DRSC16212,0.33,-0.0671,-2.32,inactive
CG7208,DRSC26213,1.12,-0.442,-0.459,inactive
TppII (Tripeptidyl-peptidase II),DRSC07565,0.644,-0.135,0.141,inactive
Sec6 (Secretory 6),DRSC06932,2.28,1,1.37,inactive
CG31937,DRSC00514,0.36,-0.0696,0.869,inactive
Mst57Da (Male-specific RNA 57Da),DRSC16744,-2.23,1.08,-0.691,inactive
Pkc98E (Protein C kinase 98E),DRSC16791,0.308,-0.0654,0.249,inactive
Pkc98E (Protein C kinase 98E),DRSC28311,-0.764,-7.03,-0.553,inactive
CG7695,DRSC16289,-1.91,-1.79,1.22,inactive
cort (cortex),DRSC02148,1.02,0.402,1.24,inactive
cort (cortex),DRSC26829,-2.45,-1.49,-0.297,inactive
CG33969,DRSC11777,1.34,0.111,-0.83,inactive
CG8243,DRSC07122,-0.26,0.647,0.437,inactive
CG8243,DRSC23414,0.368,-0.086,0.707,inactive
PpV (Protein phosphatase V),DRSC18700,-0.397,0.224,0.559,inactive
PpV (Protein phosphatase V),DRSC23307,-1.33,-0.235,-2,inactive
PpV (Protein phosphatase V),DRSC29344,0.615,-4.3,0.0132,inactive
bocks (bocksbeutel),DRSC16489,0.287,0.21,-1.55,inactive
Tsp29Fa (Tetraspanin 29Fa),DRSC03232,-2.03,0.164,-4.67,inactive
Tsp29Fa (Tetraspanin 29Fa),DRSC28522,-1.47,-0.571,-1.29,inactive
"Nubpl (NUBP iron-sulfur cluster assembly factor, mitochondrial)",DRSC03725,-0.198,0.596,0.214,inactive
dila (dilatory),DRSC06607,0.546,-1.98,0.253,inactive
dila (dilatory),DRSC26509,-1.88,-1.6,-3.16,inactive
DIP-kappa (Dpr-interacting protein kappa),DRSC01336,-0.797,-4.4,-7.97,inactive
DIP-kappa (Dpr-interacting protein kappa),DRSC01337,1.3,0.122,-0.192,inactive
